Anti-infective test results gathered from many reports (values: NIAID ChemDB through PubChem).

Common to all: host cell toxicity; cells: CEM; measure: CC50

Rows are shuffled and stem from different studies. CCn is the concentration with n% toxicity to the cells. Blank or dashed fields: not listed here.

smiles | method | value
O=C(NNc1ccc([N+](=O)[O-])cc1[N+](=O)[O-])c1ccc2ccc(C(=O)O)c(O)c2n1 | MTT | >100 µM
CC(C)CC(NC(=O)c1ccccc1SSc1ccccc1C(=O)NC(CC(C)C)C(=O)O)C(=O)O |  | 130 µM
C=C(COCP(=O)(O)O)C(C)n1cnc2c(N)ncnc21 |  | >100 µM
Cc1cc(S(=O)(=O)Nc2nc(N)nc(N(C)C)n2)c(SCC(=O)O)cc1Cl |  | >200 µM
O=C(/C=C(\O)c1ccccc1)c1ccc2ccc(C(=O)O)c(O)c2n1 | MTT | >100 µM
Cc1cc(S(=O)(=O)Nc2nnc3c(C(F)(F)F)cc(Cl)cn23)c(S)cc1Cl |  | 138 µM
Nc1ccn([C@H]2CC[C@@H](CO)O2)c(=O)n1 |  | >1 µM
O=C(O)c1ccc(NC(=O)c2ccccc2SSc2ccccc2C(=O)Nc2ccc(C(=O)O)cc2)cc1 |  | 28 µM
CCOC(=O)[C@H](C)N[P@@](=O)(OC[C@H]1O[C@@H](n2cnc3c(N)nc(N)nc32)[C@](C)(O)[C@@H]1O)Oc1ccccc1CCC(=O)OC(C)C |  | >100 µM
CCOC(=O)CCNC(=O)c1ccccc1SSc1ccccc1C(=O)NCCC(=O)OCC |  | 40 µM
CCN(c1ccccc1)c1nc(N)nc(NS(=O)(=O)c2cc(C)c(Cl)cc2S)n1 |  | >200 µM
CCn1c(=O)c(C)cn([C@@H]2O[C@H](CO[Si](C)(C)C(C)(C)C)C3(OS(=O)(=O)C=C3N)[C@H]2O[Si](C)(C)C(C)(C)C)c1=O |  | >80.9 µM
Cc1cc(S(=O)(=O)Nc2nc(Nc3ccccc3)nn2C)c(S)cc1Cl |  | 149 µM
CCOC(=O)CCc1ccccc1OP(=O)(N[C@@H](C)C(=O)OCC)OC[C@H]1O[C@@H](n2cnc3c(N)nc(N)nc32)[C@](C)(O)[C@@H]1O |  | >100 µM
CN(C(=O)c1ccccc1SSc1ccccc1C(=O)N(C)c1ccc(S(N)(=O)=O)cc1)c1ccc(S(N)(=O)=O)cc1 |  | >100 µM
Nc1ncnc2c1ncn2/C=C1/C[C@@H]1CO |  | 65 µM
Cc1cn([C@H]2C=C[C@@H](CO)O2)c(=O)[nH]c1=O |  | >30 µM
NC(=O)c1ncn([C@@H]2O[C@H](CO)[C@@H](O)[C@H]2O)n1 |  | >300 µM
CC(C)OC(=O)CCc1ccccc1O[P@@](=O)(N[C@@H](C)C(=O)OC(C)C)OC[C@H]1O[C@@H](n2cnc3c(N)nc(N)nc32)[C@](C)(O)[C@@H]1O |  | >100 µM
CC[C@H](C)[C@H](NC(=O)c1ccccc1SSc1ccccc1C(=O)N[C@H](C(=O)O)[C@@H](C)CC)C(=O)O |  | >120 µM
COc1nc(N)nc2c1ncn2/C=C1/C[C@@H]1CO |  | 98 µM
Cc1cc(S(=O)(=O)Nc2nnc3cnc4ccccc4n23)c(S)cc1Cl |  | >200 µM
Cc1cn([C@H]2C[C@H](N=[N+]=[N-])[C@@H](CO)O2)c(=O)[nH]c1=O |  | >500 µM
C=C(COCP(=O)(O)O)C(C)n1cc(C)c(=O)[nH]c1=O |  | >100 µM
O=C(NCc1ccc(O)c(O)c1O)c1ccc2ccc(C(=O)O)c(O)c2n1 | MTT | >100 µM
Nc1nc2c(ncn2COC(CO)CO)c(=O)[nH]1 |  | >10 µM
COC(=O)C(C)NP(=O)(OC[C@@H]1C/C1=C/n1cnc2c(N)nc(N)nc21)Oc1ccccc1 |  | 30 µM
Cc1cn([C@H]2C=C[C@@H](CO)O2)c(=O)[nH]c1=O |  | 234 µM
CCC(=O)c1ccc(NC(=O)c2ccccc2SSc2ccccc2C(=O)Nc2ccc(C(=O)CC)cc2)cc1 |  | 105 µM
O=c1[nH]c(=O)n([C@H]2C[C@H](F)[C@@H](CO)O2)cc1I |  | >500 µM
Cc1cc(S(=O)(=O)Nc2nnc3c4scc(C)c4ncn23)c(S)cc1Cl |  | 126 µM
O=c1[nH]c(=O)n([C@H]2C[C@H](F)[C@@H](CO)O2)cc1Cl |  | >500 µM
COC(=O)[C@@H]1CCCN1C(=O)CCc1ccc2c(c1)COP(=O)(OC[C@@H]1C=C[C@H](n3cc(C)c(=O)[nH]c3=O)O1)O2 |  | 182 µM
CCCCCCCCCCCCCC(=O)OC[C@@H](COP(=O)(O)OC[C@@H]1CC[C@H](n2ccc(N)nc2=O)O1)OC(=O)CCCCCCCCCCCCC |  | >71.4 µM
COc1ccc(CNC(=O)Nc2ccc3ccc(C(=O)O)c(O)c3n2)cc1 | MTT | >100 µM
Nc1nc2c(ncn2/C=C2/C[C@@H]2CO)c(=O)[nH]1 |  | 90 µM
CCOC(=O)/C=C/C1=C(N)C2(OS1(=O)=O)[C@@H](CO[Si](C)(C)C(C)(C)C)O[C@@H](n1cc(C)c(=O)[nH]c1=O)[C@@H]2O[Si](C)(C)C(C)(C)C |  | 174 µM
Cc1cn([C@H]2C=C[C@@H](COP3(=O)OCc4cc(CCC(=O)NC(C)C(=O)OC(C)(C)C)ccc4O3)O2)c(=O)[nH]c1=O |  | 53 µM
NS(=O)(=O)c1ccc(NC(=O)c2cccc(SSc3cccc(C(=O)Nc4ccc(S(N)(=O)=O)cc4)c3)c2)cc1 |  | >100 µM
CCOC(=O)CCc1ccccc1OP(=O)(N[C@@H](C)C(=O)OC(C)C)OC[C@H]1O[C@@H](n2cnc3c(N)nc(N)nc32)[C@](C)(O)[C@@H]1O |  | >100 µM
COc1ccc(Nc2nc(NS(=O)(=O)c3cc(C)c(Cl)cc3S)n[nH]2)cc1 |  | >200 µM
O=C(Nc1ccc(O)c(O)c1)Nc1ccc2ccc(C(=O)O)c(O)c2n1 | MTT | 70 µM
CC(C)=CCN1Cc2cc(Cl)cc3[nH]c(=S)n(c23)C[C@@H]1C |  | >31.1 µM
Cc1cc(S(=O)(=O)Nc2nc(N)nc(N(C)C)n2)c(S)cc1Cl |  | >200 µM
Nc1nc(NC2CC2)c2ncn(/C=C3/C[C@H]3CO)c2n1 |  | 95 µM

The last 4 rows once more:

O=C(Nc1ccc(O)c(O)c1)Nc1ccc2ccc(C(=O)O)c(O)c2n1 ; method: MTT ; value: 70 µM
CC(C)=CCN1Cc2cc(Cl)cc3[nH]c(=S)n(c23)C[C@@H]1C ; value: >31.1 µM
Cc1cc(S(=O)(=O)Nc2nc(N)nc(N(C)C)n2)c(S)cc1Cl ; value: >200 µM
Nc1nc(NC2CC2)c2ncn(/C=C3/C[C@H]3CO)c2n1 ; value: 95 µM